Measured values published in US7678538B2, “Disinfection of biological fluids using asymmetric cyanine dyes” (American National Red Cross, priority 2005, dated 2010).

Test system: RBCs
Experiment: Dye binding assay (spectroscopic, RBC supernatant)

CN1/C(=C/c2cc[n+](C)c3ccccc23)Sc2ccccc21.Cc1ccc(S(=O)(=O)[O-])cc1 [TO, 1-methyl-4-[(3-methyl-2(3H)-benzothiazolylidene)methyl]quinoliniump-tosylate]
decrease of supernatant adsorption peak after incubation with RBCs (80 μM TO, 20% Hct RBCs in RAS-2, 60 minutes, peak approximately 470 nm, n=4): 20.5±6.4%
dye bound to RBCs (TO, 20% hematocrit RBCs in RAS-2): Approximately 21%
